Compound potency records, mixed from different reports. Data source: NIAID ChemDB in PubChem.

All rows: growth or infection tests; species: HIV-1

Lines come from different laboratories, so protocols vary.

smiles | cells | measure | mutations | method | strain | result
CC(C)OC(=O)c1cc(NC(=S)N(C)C(C)C)ccc1Cl | CEM | EC50 | RT-L100I | syncytia | - | >30.32 µM
Cc1cc(OCc2nc3ccccc3s2)cc(Oc2cc(Cl)cc(C#N)c2)c1 | MT-4 | EC95 | - | p24 | - | <20 µM
Cc1nc2c(c(C)c(C)n2Cc2ccncc2)c(-c2ccc(Cl)cc2)c1C(OC(C)(C)C)C(=O)O | MT-4 | EC50 | - | MTT | IIIB | 0.671 µM
Cc1cn([C@H]2C=C[C@@H](CO)O2)c(=O)[nH]c1=O | MT-4 | EC50 | RT-T69SSS L210W T215Y | p24 | XM-T69SSS | <2.7 µM
COCCOCC(=O)O[C@H](C)[C@@H](CN[C@]12CC[C@@H](C3(C)CC3)[C@@H]1[C@H]1CC[C@@H]3[C@@]4(C)CC[C@H](OC(=O)[C@H]5C[C@@H](C(=O)O)C5(C)C)C(C)(C)[C@@H]4CC[C@@]3(C)[C@]1(C)CC2)N1CCS(=O)(=O)CC1 | MT-4 | EC50 | - | p24 / ELISA | NL4-3 | <0.01 µM
CC(C)C1=C2[C@H]3CC[C@@H]4[C@@]5(C)CC[C@H](OC(=O)[C@H]6C[C@@H](C(=O)O)C6(C)C)C(C)(C)[C@@H]5CC[C@@]4(C)[C@]3(C)CC[C@@]2(CC(=O)NCC(C)(C)NC(=O)c2ccc3c(c2)OCO3)CC1=O | MT-2 | EC50 | - | p24 / ELISA | 92HT599 | <1 µM
C/C=C\COc1cc(NC(=S)OC(C)C)ccc1OC | CEM | EC50 | RT-E138K | syncytia | - | 4.976 µM
Cc1nc2c(c(C)c(C)n2CC2CCCCC2)c(-c2ccc(Cl)cc2)c1[C@H](OC(C)(C)C)C(=O)O | MT-4 | EC50 | - | MTT | IIIB | 0.1448 µM
Nc1nc(=O)n([C@H]2C=C[C@@H](CO)O2)cc1F | MT-4 | EC90 | RT-T69SSS L210W T215Y | p24 | XM-T69SSS | 8.2 µM
CC1=C(C(=O)Nc2ccc(Cl)c(C(=O)OC(C)C)c2)SCCO1 | CEM | EC50 | RT-E138K | syncytia | - | ≥56.2 µM
N#Cc1cc(Cl)cc(Oc2cc(OCc3[nH]nc4nc(N5CC(N)C5)ccc34)ccc2Cl)c1 | MT-4 | EC95 | - | p24 | - | <20 µM
CSc1ccc(NC(=S)OC(C)C)cc1C(=O)OC(C)C | CEM | EC50 | RT-V106A | syncytia | - | 18.32 µM
Cc1nc2c(c(C)c(C)n2CCN2CCCC2)c(-c2ccc(Cl)cc2)c1[C@H](OC(C)(C)C)C(=O)O | MT-4 | EC50 | - | MTT | IIIB | 0.124 µM
N#Cc1cc(Cl)cc(Oc2c(Br)ccc(CC(=O)Nc3ccc(S(N)(=O)=O)cc3Cl)c2F)c1 | MT-4 | EC50 | V179F/Y181C | - | - | 0.0008 µM
CC(C)C1=C2[C@H]3CC[C@@H]4[C@@]5(C)CC[C@H](OC(=O)[C@H]6C[C@@H](C(=O)O)C6(C)C)C(C)(C)[C@@H]5CC[C@@]4(C)[C@]3(C)CC[C@@]2(CCNCC(C)(C)NC(=O)c2ccccn2)CC1=O | MT-2 | EC50 | - | p24 / ELISA | 92HT599 | <1 µM
CO/N=C/c1cc(NC(=S)OC(C)C)ccc1Cl | CEM | EC50 | RT-Y181C | syncytia | - | 17.43 µM
NS(=O)(=O)c1ccc(NC(=O)COc2cccc(Oc3ccccc3)c2)c(Cl)c1 | MT-4 | EC95 | - | p24 | - | <20 µM
COC(=S)Nc1ccc(Cl)c(C(=O)OC(C)C)c1 | CEM | EC50 | - | syncytia | IIIB | 6.6 µM
CC(C)C1=C2[C@H]3CC[C@@H]4[C@@]5(C)CC[C@H](OC(=O)[C@H]6C[C@@H](C(=O)O)C6(C)C)C(C)(C)[C@@H]5CC[C@@]4(C)[C@]3(C)CC[C@@]2([C@@H](O)CNCc2nccn2C)CC1=O | MT-2 | EC50 | - | p24 / ELISA | 92HT599 | <1 µM
CC(C)S(=O)(=O)N1CCN([C@H](CN[C@]23CC[C@@H](C4(C)CC4)[C@@H]2[C@H]2CC[C@@H]4[C@@]5(C)CC[C@H](OC(=O)[C@H]6C[C@@H](C(=O)O)C6(C)C)C(C)(C)[C@@H]5CC[C@@]4(C)[C@]2(C)CC3)[C@@H](C)O)CC1 | MT-4 | EC50 | - | p24 / ELISA | NL4-3 | <0.01 µM
CCOC(=O)C(C)Oc1cc(NC(=S)OC(C)C)ccc1Cl | CEM | EC50 | - | syncytia | IIIB | 1.879 µM
COP(=O)(c1cc(C)cc(CCC#N)c1)c1c(C(N)=O)[nH]c2ccc(Cl)c(F)c12 | MT-2 | EC50 | - | - | BH10 | 0.0009 µM
CC(C)OC(=S)Nc1ccc(Cl)c(C(=O)OCC(F)(F)F)c1 | CEM | EC50 | RT-V106A | syncytia | - | >28.11 µM
N#Cc1cc(Cl)cc(Oc2cc(OCc3cn(-c4ccccc4)nn3)ccc2Cl)c1 | MT-4 | EC50 | - | p24 | - | <20 µM
C=C(C)[C@@H]1CC[C@]2(NC[C@H]([C@@H](C)O)N3CCS(=O)(=O)CC3)CC[C@]3(C)[C@H](CC[C@@H]4[C@@]5(C)CC[C@H](OC(=O)[C@H]6C[C@@H](C(=O)O)C6(C)C)C(C)(C)[C@@H]5CC[C@]43C)[C@@H]12 | MT-4 | EC50 | - | p24 / ELISA | NL4-3 | <0.01 µM
CS(=O)(=O)c1ccc(NC(=O)COc2cc(Cl)cc(Oc3cc(Cl)cc(C#N)c3)c2)c(Cl)c1 | MT-4 | EC50 | - | p24 | - | <20 µM
C[C@@H](O)[C@@H](CN[C@]12CC[C@@H](C3(C)CC3)[C@@H]1[C@H]1CC[C@@H]3[C@@]4(C)CC[C@H](OC(=O)[C@H]5C[C@@H](C(=O)O)C5(C)C)C(C)(C)[C@@H]4CC[C@@]3(C)[C@]1(C)CC2)N1CCS(=O)(=O)CC1 | MT-2 | EC50 | - | p24 / ELISA | 92HT599 | <0.01 µM
C#CCOC(=O)c1cc(NC(=S)OC(C)C)ccc1Cl | CEM | EC50 | - | syncytia | IIIB | 0.93 µM
CC1([C@@H]2CC[C@]3(NCC(C)(C)N4CCS(=O)(=O)CC4)CC[C@]4(C)[C@H](CC[C@@H]5[C@@]6(C)CC[C@H](OC(=O)[C@H]7C[C@@H](C(=O)O)C7(C)C)C(C)(C)[C@@H]6CC[C@]54C)[C@@H]23)CC1 | MT-4 | EC50 | - | p24 / ELISA | NL4-3 | >0.05 µM
Cc1ccc(C(=O)NC(C)(C)C(=O)NC[C@H](O)[C@@]23CC[C@]4(C)[C@H](CC[C@@H]5[C@@]6(C)CC[C@H](OC(=O)[C@H]7C[C@@H](C(=O)O)C7(C)C)C(C)(C)[C@@H]6CC[C@]54C)C2=C(C(C)C)C(=O)C3)nc1 | MT-2 | EC50 | - | p24 / ELISA | 92HT599 | <1 µM
C[C@H](F)[C@@H](CN[C@]12CC[C@@H](C3(C)CC3)[C@@H]1[C@H]1CC[C@@H]3[C@@]4(C)CC[C@H](OC(=O)[C@H]5C[C@@H](C(=O)O)C5(C)C)C(C)(C)[C@@H]4CC[C@@]3(C)[C@]1(C)CC2)N1CCS(=O)(=O)CC1 | MT-4 | EC50 | V7A | p24 / ELISA | NL4-3 | >0.1 µM
Cc1nc2c(c(C)c(C)n2CC(=O)O)c(-c2ccc(Cl)cc2)c1[C@H](OC(C)(C)C)C(=O)O | MT-4 | EC50 | - | MTT | IIIB | 2.04 µM
C=C(C)COc1cc(NC(=S)OC(C)C)ccc1Cl | CEM | EC50 | RT-L100I | syncytia | - | >3.335 µM
COc1ccnc2[nH]cc(C(=O)C(=O)N3C4CC3CN(C(=O)c3ccccc3)C4)c12 | TZM-bl | EC50 | - | luciferase | SF162 | 140 µM
CC(C)OC(=O)c1cc(NC(=S)SC(C)C)ccc1Cl | CEM | EC50 | RT-Y181C | syncytia | - | >30.13 µM
CC(C)C1=C2[C@H]3CC[C@@H]4[C@@]5(C)CC[C@H](OC(=O)[C@H]6C[C@@H](C(=O)O)C6(C)C)C(C)(C)[C@@H]5CC[C@@]4(C)[C@]3(C)CC[C@@]2(CC(=O)N(CCN(C)C)Cc2cccc(Cl)c2)CC1=O | MT-2 | EC50 | - | p24 / ELISA | 92HT599 | <1 µM
CC(C)OC(=O)c1cc(NC(=S)OCC2(C)COC2)ccc1Cl | CEM | EC50 | RT-E138K | syncytia | - | >29.94 µM
COc1ccnc2[nH]cc(C(=O)C(=O)N3CCN(C(=O)c4ccccc4)C[C@H]3C)c12 | TZM-bl | EC99 | - | luciferase | AC10 | 1.4 µM
CCCOC(=O)c1cc(NC(=S)OC(C)C)ccc1Cl | CEM | EC50 | RT-L100I | syncytia | - | 9.816 µM
COCCOCCOCCO[C@H](C)[C@@H](CN[C@]12CC[C@@H](C3(C)CC3)[C@@H]1[C@H]1CC[C@@H]3[C@@]4(C)CC[C@H](OC(=O)[C@H]5C[C@@H](C(=O)O)C5(C)C)C(C)(C)[C@@H]4CC[C@@]3(C)[C@]1(C)CC2)N1CCS(=O)(=O)CC1 | MT-4 | EC50 | - | p24 / ELISA | NL4-3 | <0.01 µM
Cc1ccc(-c2nc3ccc(C(=O)NC[C@H](O)[C@@]45CC[C@]6(C)[C@H](CC[C@@H]7[C@@]8(C)CC[C@H](OC(=O)[C@H]9C[C@@H](C(=O)O)C9(C)C)C(C)(C)[C@@H]8CC[C@]76C)C4=C(C(C)C)C(=O)C5)cc3[nH]2)cn1 | MT-2 | EC50 | - | p24 / ELISA | 92HT599 | <1 µM
C[C@H](O)[C@H](CN[C@]12CC[C@@H](C3(C)CC3)[C@@H]1[C@H]1CC[C@@H]3[C@@]4(C)CC[C@H](OC(=O)[C@H]5C[C@@H](C(=O)O)C5(C)C)C(C)(C)[C@@H]4CC[C@@]3(C)[C@]1(C)CC2)N1CCS(=O)(=O)CC1 | MT-2 | EC50 | V7A | p24 / ELISA | NL4-3 | <0.05 µM
C=CCSc1cc(NC(=S)OC(C)C)ccc1Cl | CEM | EC50 | - | syncytia | IIIB | 0.127 µM
CN(C)S(=O)(=O)c1ccc2c(c1)CCN2C(=O)COc1cc(Cl)cc(Oc2cc(Cl)cc(C#N)c2)c1 | MT-4 | EC50 | - | p24 | - | <20 µM
C#CCOc1cc(NC(=S)OC(C)C)ccc1Cl | CEM | EC50 | RT-E138K | syncytia | - | 2.467 µM
N#Cc1cc(Cl)cc(Oc2cc(Cl)cc(OCC(=O)Nc3ccc4nc[nH]c4c3)c2)c1 | MT-4 | EC95 | - | p24 | - | <20 µM
CC(C)OC(=O)c1cc(NC(=S)OC(C)C)ccc1Cl | CEM | EC50 | RT-E138K | syncytia | - | 1.235 µM
N#Cc1cc(Cl)cc(Oc2cc(OCc3[nH]nc4nc(N5CCC5)ccc34)ccc2Cl)c1 | MT-4 | EC95 | - | p24 | - | <20 µM
CCOC(=O)c1cc(NC(=S)OC(C)C)ccc1SC | CEM | EC50 | RT-L100I | syncytia | - | 11.17 µM
CCCc1cc(=O)oc2c3c(c4c(c12)OC(C)(C)CC4)O[C@H](C)[C@@H](C)C3=O | - | EC50 | - | cytopathic effect / XTT | IIIB | 1.47 µM
CC1([C@@H]2CC[C@]3(NC[C@H](CO[Si](C)(C)C(C)(C)C)N4CCS(=O)(=O)CC4)CC[C@]4(C)[C@H](CC[C@@H]5[C@@]6(C)CC[C@H](OC(=O)[C@H]7C[C@@H](C(=O)O)C7(C)C)C(C)(C)[C@@H]6CC[C@]54C)[C@@H]23)CC1 | MT-4 | EC50 | V7A | p24 / ELISA | NL4-3 | >0.1 µM
Cc1nc2c(c(C)c(C)n2Cc2ccnc(F)c2)c(-c2ccc(Cl)cc2)c1[C@H](OC(C)(C)C)C(=O)O | MT-4 | EC50 | - | MTT | IIIB | 0.0145 µM

Repeating the final 3 entries:

smiles | cells | measure | mutations | method | strain | result
CCCc1cc(=O)oc2c3c(c4c(c12)OC(C)(C)CC4)O[C@H](C)[C@@H](C)C3=O | - | EC50 | - | cytopathic effect / XTT | IIIB | 1.47 µM
CC1([C@@H]2CC[C@]3(NC[C@H](CO[Si](C)(C)C(C)(C)C)N4CCS(=O)(=O)CC4)CC[C@]4(C)[C@H](CC[C@@H]5[C@@]6(C)CC[C@H](OC(=O)[C@H]7C[C@@H](C(=O)O)C7(C)C)C(C)(C)[C@@H]6CC[C@]54C)[C@@H]23)CC1 | MT-4 | EC50 | V7A | p24 / ELISA | NL4-3 | >0.1 µM
Cc1nc2c(c(C)c(C)n2Cc2ccnc(F)c2)c(-c2ccc(Cl)cc2)c1[C@H](OC(C)(C)C)C(=O)O | MT-4 | EC50 | - | MTT | IIIB | 0.0145 µM

Blank or dashed fields: not listed here. ECn is the concentration giving n% inhibition of infection, replication or growth.